Measured values from several laboratories, pooled; numbers as filed in NIAID ChemDB.

Common to all: tests in culture

Conditions beyond the fields shown may differ between rows. A number after MIC or MFC names an inhibition level or a share of isolates. Inhibition is in % at the dose shown (toxicity tests: loss of growth or viability). Zones are inhibition diameters on agar. Blank or dashed fields: not listed here.

compound | strain | conditions | organism | read by | tested at | measure | result
Cc1cc(NS(=O)(=O)c2ccc(NC(=O)Nc3ccc(S(=O)(=O)Nc4cc(C)on4)cc3)cc2)no1 | 6509/96 clinical isolate | 21 d | Mycobacterium kansasii | broth dilution / absorbance |  | MIC100 | 4 µM
COc1c(N2CCNCC2)c(F)cc2c(=O)c(C(=O)O)cn(-c3ccc(F)cc3F)c12 | ATCC 6841 |  | Mycobacterium fortuitum |  |  | MIC | 0.5 µg/mL
Cc1ccc2c(c1)C1(C(=O)N2C)C2=C(CN1C)C(=O)c1ccccc1C2=O |  |  | Mycobacterium luteus | agar diffusion | 50 µg/mL | zone | 15 mm
CC[C@H]1OC(=O)[C@H](C)[C@@H](O[C@H]2C[C@@](C)(OC)[C@@H](O)[C@H](C)O2)[C@H](C)[C@@H](O[C@@H]2O[C@H](C)C[C@H](N(C)C)[C@H]2O)[C@](C)(OC)C[C@@H](C)C(=O)[C@H](C)[C@@H](O)[C@]1(C)O | AC1 |  | Mycobacterium abscessus | broth dilution |  | MIC | 1 µg/mL
CN1C(=O)C2(C3=C(C(=O)c4ccccc4C3=O)C3CCCN32)c2ccccc21 |  |  | Mycobacterium luteus | agar diffusion | 50 µg/mL | zone | 9 mm
COc1ccc(-c2nn(-c3ccccc3)cc2C2C3=C(NC(C)(c4cc(O)c(I)cc4Cl)NC3=O)Oc3c2c(C)nn3-c2ccccc2)cc1 | NCIM 2240 |  | Mycobacterium phlei | agar diffusion / agar | 0.5 mg/mL | zone | 6.2 mm
CC(C)(C)n1cc(C(=O)O)c(=O)c2cc(F)c(N3CCNCC3)nc21 | ATCC 6841 |  | Mycobacterium fortuitum |  |  | MIC | 0.06 µg/mL
CN(C)[C@@H]1C(=O)C(C(N)=O)=C(O)[C@@]2(O)C(=O)C3=C(O)c4c(O)cccc4[C@@](C)(O)[C@H]3C[C@@H]12 | 34 strains |  | Mycoplasma hominis |  |  | MIC90 | 1 µg/mL
Nc1nc(N)c2c(n1)NC(c1ccc3c(c1)OCO3)CC(c1ccccc1)=N2 | MNT1407 | clinical isolate | Mycobacterium chelonae | MTT / broth dilution / absorbance |  | MIC | >32 µg/mL
CCCCN1C(=O)C2(C3=C(CN2C)C(=O)c2ccccc2C3=O)c2ccccc21 |  |  | Mycobacterium luteus | agar diffusion | 50 µg/mL | zone | 13 mm
CCCCCCCNC(=O)Nc1ccc(S(=O)(=O)Nc2cc(C)on2)cc1 | 235/80 | 21 d | Mycobacterium kansasii | broth dilution / absorbance |  | MIC100 | 16 µM
CN(C)c1cc(NC(=O)CNC(C)(C)C)c(O)c2c1C[C@H]1C[C@H]3[C@H](N(C)C)C(=O)C(C(N)=O)=C(O)[C@@]3(O)C(=O)C1=C2O | V133 |  | Mycobacterium abscessus | broth dilution |  | MIC | 0.25 µg/mL
O=C(O)c1cn(C2CC2)c2cc(N3CCNCC3)c(F)cc2c1=O | ATCC 10240 |  | Mycobacterium luteus | agar diffusion / agar | 2000 µM | zone | 0 mm
CCN(CC)c1nc2c(s1)c1c(O)c3c(O)c(C)c4c(c32)C(=O)[C@@](C)(O/C=C/[C@H](OC)[C@@H](C)[C@@H](OC(C)=O)[C@H](C)[C@H](O)[C@H](C)[C@@H](O)[C@@H](C)/C=C/C=C(/C)C(=O)N1)O4 | 3337-4 |  | Mycobacterium avium |  |  | MBC | 8 µg/mL
N/C(=N\N=C\c1ccccc1OCc1ccccc1)c1ccccn1 |  |  | Mycobacterium fortuitum |  | 100 µM | inhibition | 5.1%
O=C1C2=C(C(=O)c3ccccc31)C1(C(=O)Nc3ccc(Cl)cc31)N1CCCC21 |  |  | Mycobacterium luteus | agar diffusion | 50 µg/mL | zone | 10 mm
Cc1nn(-c2ccccc2)c2c1C(c1cn(-c3ccccc3)nc1-c1ccc(Cl)cc1)C1=C(NC(C)(c3cc(O)ccc3Cl)NC1=O)O2 | NCIM 2240 |  | Mycobacterium phlei | agar diffusion / agar | 0.5 mg/mL | zone | 2.4 mm
O=Cc1cccc2ccccc12 |  |  | Mycobacterium fortuitum |  | 1000 µM | inhibition | 9.2%
CNC(=O)Nc1ccc(S(=O)(=O)Nc2cc(C)on2)cc1 | 235/80 | 7 d | Mycobacterium kansasii | broth dilution / absorbance |  | MIC100 | 32 µM
Nc1nc(N)c2c(n1)NC(c1ccccc1)CC(c1ccc3c(c1)OCO3)=N2 | MNT1100 | clinical isolate | Mycobacterium szulgai | MTT / broth dilution / absorbance |  | MIC | 32 µg/mL
O=C(O)c1cn(-c2ccc(F)cc2F)c2c(F)c(N3CCNCC3)c(F)cc2c1=O | ATCC 6841 |  | Mycobacterium fortuitum |  |  | MIC | 0.5 µg/mL
COc1ccc(C2CC(c3ccc4c(c3)OCO4)=Nc3c(N)nc(SC)nc3N2)cc1 | MNT1407 | clinical isolate | Mycobacterium chelonae | MTT / broth dilution / absorbance |  | MIC | >32 µg/mL
O=C(O)c1cn(C2CC2)c2nc(N3CCNCC3)c(F)cc2c1=O | ATCC 6841 |  | Mycobacterium fortuitum |  |  | MIC | 0.13 µg/mL
O=C(NO)c1ccc([N+](=O)[O-])cc1 | IMET 10670 |  | Mycobacterium vaccae | resazurin |  | MIC | 6.25 µM
O=C(O)c1cn(C2CC2)c2c(Cl)c(N3CCNCC3)c(F)cc2c1=O | ATCC 6841 |  | Mycobacterium fortuitum |  |  | MIC | 0.06 µg/mL
Cc1cc(NS(=O)(=O)c2ccc(NC(=O)C(=O)Nc3ccc(S(=O)(=O)Nc4cc(C)on4)cc3)cc2)no1 | 6509/96 clinical isolate | 21 d | Mycobacterium kansasii | broth dilution / absorbance |  | MIC100 | 4 µM
CC1COc2c(N3CCN(C)CC3)c(F)cc3c(=O)c(C(=O)O)cn1c23 | 37 strains |  | Mycoplasma hominis |  |  | MIC90 | 1 µg/mL
CC[C@@H](CO)NCCN[C@@H](CC)CO | 3350 |  | Mycobacterium avium complex |  |  | MBC | 30 µg/mL
Nc1nc(N)c2c(n1)NC(c1ccc(Cl)cc1)CC(c1ccc3c(c1)OCO3)=N2 | MNT1193 | clinical isolate | Mycobacterium scrofulaceum | MTT / broth dilution / absorbance |  | MIC | 32 µg/mL
Cc1nn(-c2ccccc2)c2c1C(c1cn(-c3ccccc3)nc1-c1ccc(Cl)cc1)C1=C(NC(C)(c3cc(O)cc(O)c3)NC1=O)O2 | NCIM 2240 |  | Mycobacterium phlei | agar diffusion / agar | 0.5 mg/mL | zone | 3.8 mm
CCC(C)(C)c1ccc(C=O)cc1 |  |  | Mycobacterium fortuitum |  | 1000 µM | inhibition | 24.1%
Cc1nn(-c2ccccc2)c2c1C(c1cn(-c3ccccc3)nc1-c1ccc(F)cc1)C1=C(NC(C)(c3cc(O)cc(O)c3)NC1=O)O2 | NCIM 2240 |  | Mycobacterium phlei | agar diffusion / agar | 1 mg/mL | zone | 2.2 mm
CCN1CCN(c2nc3c(cc2F)c(=O)c(C(=O)O)cn3CC)CC1 | ATCC 6841 |  | Mycobacterium fortuitum |  |  | MIC | 0.5 µg/mL
CN1CC2=C(C(=O)c3ccccc3C2=O)C12C(=O)c1ccccc1C2=O |  |  | Mycobacterium luteus | agar diffusion | 50 µg/mL | zone | 8 mm
CO[C@H]1/C=C/O[C@@]2(C)Oc3c(C)c(O)c4c(O)c(c5c(c4c3C2=O)NC2(CCN(CC(C)C)CC2)N=5)=NC(=O)/C(C)=C\C=C\[C@H](C)[C@H](O)[C@@H](C)[C@@H](O)[C@@H](C)[C@H](OC(C)=O)[C@@H]1C | 3090-4 |  | Mycobacterium avium complex |  |  | MIC | 0.25 µg/mL
COc1ccc2c(c[n+](C)c3c4cc5c(cc4ccc23)OCO5)c1OC |  |  | Mycobacterium aurum |  |  | MIC50 | 7.3 µg/mL
CC(C)N=c1cc2n(-c3ccc(Cl)cc3)c3ccccc3nc-2cc1Nc1ccc(Cl)cc1 | 549/HIV+ |  | Mycobacterium avium complex |  |  | MIC | 0.5 µg/mL
CC1CN(c2nc3c(cc2F)c(=O)c(C(=O)O)cn3C2CC2)CCN1 | ATCC 6841 |  | Mycobacterium fortuitum |  |  | MIC | 0.13 µg/mL
N/C(=N\N=C\c1cccc2ccccc12)c1ccccn1 |  |  | Mycobacterium fortuitum |  | 1000 µM | inhibition | 10.1%
Cc1cc(NS(=O)(=O)c2ccc(NC(=O)N(C(C)C)C(C)C)cc2)no1 | 235/80 | 7 d | Mycobacterium kansasii | broth dilution / absorbance |  | MIC100 | 250 µM
CC1CN(c2c(F)cc3c(=O)c(C(=O)O)cn(-c4ccc(F)cc4F)c3c2F)CCN1 | ATCC 6841 |  | Mycobacterium fortuitum |  |  | MIC | 0.5 µg/mL
NCC[C@H](O)C(=O)N[C@@H]1C[C@H](N)[C@@H](O[C@H]2O[C@H](CN)[C@@H](O)[C@H](O)[C@H]2O)[C@H](O)[C@H]1O[C@H]1O[C@H](CO)[C@@H](O)[C@H](N)[C@H]1O | 549/HIV+ |  | Mycobacterium avium complex |  |  | MIC | 2.5 µg/mL
O=C(NOCc1ccccc1)c1cc([N+](=O)[O-])cc(C(F)(F)F)c1 | IMET 10670 |  | Mycobacterium vaccae | resazurin |  | MIC | 3.13 µM
CN[C@@H]1[C@H](O[C@H]2[C@H](O[C@H]3[C@H](O)[C@@H](O)[C@H](N=C(N)N)[C@@H](O)[C@@H]3N=C(N)N)O[C@@H](C)[C@]2(O)C=O)O[C@@H](CO)[C@H](O)[C@H]1O |  |  | Mycobacterium luteus | agar diffusion |  | MIC | 6.25 µg/mL
Cc1nn(-c2ccccc2)c2c1C(c1cn(-c3ccccc3)nc1-c1ccc(F)cc1)C1=C(NC(C)(c3cc(O)c(I)cc3Cl)NC1=O)O2 | NCIM 2240 |  | Mycobacterium phlei | agar diffusion / agar | 0.1 mg/mL | zone | 5.8 mm
O=C(NOCc1ccccc1)c1cc(Br)cc(C(F)(F)F)c1 | ATCC 10240 |  | Mycobacterium luteus | agar diffusion / agar | 2000 µM | zone | 16 mm

Repeating the first 2 entries:

| compound | strain | conditions | organism | read by | tested at | measure | result |
|---|---|---|---|---|---|---|---|
| Cc1cc(NS(=O)(=O)c2ccc(NC(=O)Nc3ccc(S(=O)(=O)Nc4cc(C)on4)cc3)cc2)no1 | 6509/96 clinical isolate | 21 d | Mycobacterium kansasii | broth dilution / absorbance |  | MIC100 | 4 µM |
| COc1c(N2CCNCC2)c(F)cc2c(=O)c(C(=O)O)cn(-c3ccc(F)cc3F)c12 | ATCC 6841 |  | Mycobacterium fortuitum |  |  | MIC | 0.5 µg/mL |